This series is described as follows: Odor reduction of municipal sludge, headspace GC-MS and odor. The conditions noted are these: second series, 5.00 g sludge no dilution, 0.5 ml or 0.5 g addition. As for the experimental part: Effectiveness of the treatments was evaluated through the GC-MS analysis of the treated and untreated sludge. Sludge (5.0 g) was placed into a 44 ml vial. After heating to 60.0° C. for 5.0 minutes a probe of gas was taken from the vial (0.5 ml) and injected into the GC-MS.
Hewlett-Packard (HP) GC 5890 coupled with an HP 5971 mass-spectrometer. The system incorporates an electron beam as an ion source. Ions are filtered through a glass with silver-coated quadruples.
A DB5MS capillary chromatographic column is used and the MS is tuned with PFTBA in a Scan Mode (tune file: BFB.U).
For further characterization the peak area of the 94-ion was selected. The calibration was performed using dimethyldisulfide. A calibration curve is presented in the attached data.
In the first series, 6.00 g (±0.05) of the sludge with the addition of 10.0 ml of distilled water was used. For the treatment, we used potential oxidizers such as KNO3 and H2SO4 in different combinations.
In the second series we used 5.00 g (±0.01) of the sludge with no dilution. For the treatment we used additions of hydrogen peroxide (30%) −0.5 ml, sulfuric acid (98%), −0.5 ml, a combination of hydrogen peroxide and 0.5 ml and sulfuric acid 0. ml, ammonia (54%) −0.5ml, calcium hypochlorite −0.5 g.
The effectiveness of the additions is evaluated through decreasing the area of 94-ion signal with retention time around 1.94 minutes. […]

Molecules are shown by their SMILES.

In the case of `OO` [Trial H2O2, hydrogen peroxide], the “Peak area for line 94 at retention time of 1.93 and 1.74 minutes” value is 35,000 integration units (IU).

With `N` [NH3, ammonia], the “Peak area for line 94 at retention time of 1.93 and 1.74 minutes” value is on record as 3,650 integration units (IU).

The record behind these values is patent US20040177664A1, “Production of a high quality organic-based fertilizer” (priority 2003, published 2004).
